Anti-infective test results gathered from many reports (values: NIAID ChemDB through PubChem).

Common to all: whole-cell or culture tests; species: Hepatitis C virus; endpoint: EC50

Two numbers with a dash give a range or band. ECn is the concentration giving n% inhibition of infection, replication or growth. An empty or dashed field is not shown. Rows are shuffled and stem from different studies.

| compound | strain or isolate | method | value |
|---|---|---|---|
| O=C(NS(=O)(=O)C1CC1)c1c(-c2ccc[nH]c2=O)c2c3occc3c(F)cc2n1Cc1cc(=O)[nH]cc1F | - | replicon | <0.5 µM |
| CCN1CCC[C@@H]1CNC(=O)CCC(=O)N1c2cccc(O)c2NC2=C(C(=O)CC(C)(C)C2)C1c1ccc(OCc2ccccc2)cc1Cl | 1b | luciferase / reporter gene / replicon | 46.69 µM |
| CCOc1nc(NCc2ccc(F)cc2)nc2ccc(-c3cnc(N)s3)nc12 | - | replicon | <0.1 µM |
| NCc1ccc(Cn2c(C(=O)O)c(-c3ccc[nH]c3=O)c3c4occc4c(F)cc32)c(F)c1 | - | replicon | <0.5 µM |
| CC1(C)CC(=O)C2=C(C1)Nc1c(O)cccc1NC2c1cccnc1N | 1b | luciferase / reporter gene / replicon | >100 µM |
| O=C(NS(=O)(=O)C1CC1)c1c(-c2ccc[nH]c2=O)c2c3occc3c(F)cc2n1Cc1cc(Cl)nc2ccccc12 | - | replicon | 0.5–1.5 µM |
| CC1CCC(C(=O)N(c2cc(-c3ccc(NC(=O)c4ccccc4F)cc3)sc2C(=O)O)C(C)C)CC1 | 1b | replicon | <0.5 µM |
| NC(=O)CCNc1nc(NCC(F)(F)F)c2nc(-c3ccc(F)cc3)ccc2n1 | - | replicon | <0.1 µM |
| CC1(C)CC(=O)C2=C(C1)Nc1c(O)cccc1N(C(=O)CCC(=O)NC1CCOC1=O)C2c1ccc(OCc2ccccc2)cc1Cl | 1b | luciferase / reporter gene / replicon | >100 µM |
| NC(=O)COc1ccc2c(c1)S(=O)(=O)N=C(c1c(O)c3cc(F)ccc3n(CCC3CC3)c1=O)N2 | 1b 66193 | replicon | <0.001 µM |
| Cc1cc(C(=O)Nc2ccc(-c3cc(N(CC4CC4)C(=O)C4CCC(C)CC4)c(C(=O)O)s3)cc2)nn1C | 1b | replicon | <0.5 µM |
| CC(=O)N1c2cccc(O)c2NC2=C(C(=O)CC(C)(C)C2)C1c1ccc(OCc2cccnc2)cc1Cl | 1b | luciferase / reporter gene / replicon | 13.93 µM |
| CC1CCC(C(=O)N(c2cc(-c3ccc(NC(=O)c4cscn4)cc3)sc2C(=O)O)C(C)C)CC1 | 1a | replicon | <0.5 µM |
| NS(=O)(=O)c1ccc(CNc2nc(NCC(F)(F)F)c3nc(-c4ccc(NC(=O)[C@H]5CCNC5)cc4)ccc3n2)cc1 | - | replicon | <0.1 µM |
| CC1CCC(C(=O)N(c2cc(-c3ccc(NC(=O)c4ccsc4)cc3)sc2C(=O)O)C(C)C)CC1 | 1a | replicon | <0.5 µM |
| CC1(C)CC(=O)C2=C(C1)Nc1c(O)cccc1N(C(=O)OCC(=O)NS(C)(=O)=O)C2c1ccc(OCc2ccccc2)cc1Cl | 1b | luciferase / reporter gene / replicon | >32 µM |
| CC1CCC(C(=O)N(CC2CC2)c2cc(-c3ccc(NC(=O)c4cscn4)cc3)sc2C(=O)O)CC1 | 1b | replicon | <0.5 µM |
| CCOc1nc(NCc2ccc(F)cc2)nc2ccc(-c3ccc(NC(=O)OCCN4CCCC4)cc3)nc12 | - | replicon | <0.1 µM |
| CC(=O)N1c2cccc(O)c2NC2=C(C(=O)CC(C)(C)C2)C1c1cccc(Cl)c1Cl | 1b | luciferase / reporter gene / replicon | 0.85 µM |
| CS(=O)(=O)NC(=O)c1c(-c2ccc[nH]c2=O)c2c3ccoc3ccc2n1Cc1cc(F)ccc1F | - | replicon | >1.5 µM |
| CC1(C)CC(=O)C2=C(C1)Nc1c(O)cccc1N(C(=O)CCC(=O)N1CCCc3ccccc31)C2c1ccc(OCc2ccccc2)cc1Cl | 1b | luciferase / reporter gene / replicon | 3.18 µM |
| Cc1ccc2cc(Cn3c(C(=O)O)c(-c4ccc[nH]c4=O)c4c5occc5c(F)cc43)c(Cl)nc2c1 | - | replicon | <0.5 µM |
| CCOc1nc(NCc2ccc(S(N)(=O)=O)cc2)nc2ccc(-c3cccc(S(N)(=O)=O)c3)nc12 | - | replicon | <0.1 µM |
| O=C(O)c1c(-c2ccc[nH]c2=O)c2c3ncsc3ccc2n1Cc1ccc(F)cc1F | - | replicon | >1.5 µM |
| CC1(C)CC(=O)C2=C(C1)Nc1c(O)cccc1N(C(=O)NCC(=O)N1CCOCC1)C2c1ccc(OCc2ccccc2)cc1Cl | 1b | luciferase / reporter gene / replicon | 16.46 µM |

Repeating the final 3 entries:

compound	strain or isolate	method	value
CCOc1nc(NCc2ccc(S(N)(=O)=O)cc2)nc2ccc(-c3cccc(S(N)(=O)=O)c3)nc12	-	replicon	<0.1 µM
O=C(O)c1c(-c2ccc[nH]c2=O)c2c3ncsc3ccc2n1Cc1ccc(F)cc1F	-	replicon	>1.5 µM
CC1(C)CC(=O)C2=C(C1)Nc1c(O)cccc1N(C(=O)NCC(=O)N1CCOCC1)C2c1ccc(OCc2ccccc2)cc1Cl	1b	luciferase / reporter gene / replicon	16.46 µM